How the values were obtained:
[1] = target: Hemagglutinin of H1N1 A/California/07/2009 virus (Influenza A virus A/California/07/2009 …); test: cell-based or functional assay
[2] = target: Hemagglutinin of H5N1 A/Vietnam/1203/2004 virus (Influenza A virus A/Vietnam/1203/2004 …); test: cell-based or functional assay

B1: H1H11829N2 (antibody, V domains shown)
VH: QVHLVQSGPEVKKPGSSVKVSCKASGVTFISHAISWVRQAPGQGLEWVGGIIAIFGTTNYAQKFQGRVTVTTDKSTNTVYMELSRLRSEDTAIYYCARGETYYEGNFDFWGQGTLVTVSS
VL: not shown
IC90 (nM), hemagglutination titer after microneutralization assay, Trial 1 [1]: 41.7 nM
IC90 (nM), hemagglutination titer after microneutralization assay, Trial 1 [2]: 83.3 nM

— patent US20160176953A1 (Regeneron, published 2016)
